*1 amine or outer side, *2 acyl side, *3 side chain or, on linkers, in order; H or OH if unused. Where a SMILES comes first, the peptide text is derived from it. Bridges are numbered along the chain shown (N, C = ends). Where no end group is shown, it is not given here. [ ]: non-standard residue; d: D form. X1 = O=C([C@H](CCCCNCC=[*:3])N[*:1])[*:2]
assay: Circular dichroism (CD) spectra assay; type: physicochemical; details: PBS with 100 mM SDS, peptide 0.1 mg/mL, 190–260 nm, 25°C

Row | Compound | α‐helix [%]
1 | RILRKLKKRFLK [GAN‐P2‐3] | 75
2 | RILRKLRKRFLK [GAN‐P2‐4] | 35
3 | CC[C@H](C)[C@H](NC(=O)[C@H](CCCNC(=N)N)NC(=O)[C@H](CCCCN)NC(=O)[C@@H](N)Cc1c[nH]c2ccccc12)C(=O)N[C@@H](C)C(=O)N[C@H]1CCCCNC/C=C/CNCCCC[C@@H](C(=O)N[C@@H](CCCCN)C(=O)N[C@@H](CC(C)C)C(=O)NCC(=O)N[C@@H](CCCNC(=N)N)C(=O)N[C@@H](C)C(=O)N[C@@H](CCCCN)C(=O)N[C@@H](CC(C)C)C(=O)N[C@@H](Cc2ccccc2)C(=O)O)NC(=O)[C@H](CCCCN)NC(=O)[C@H](CC(C)C)NC(=O)[C@H](CCCNC(=N)N)NC1=O [VAE‐P3‐3‐St] (H-WKRIA[X1]RLK[X1]KLGRAKLF-OH; staple (E) 6-10) | 80
4 | CC[C@H](C)[C@H](NC(=O)[C@H](CCCNC(=N)N)NC(=O)[C@H](CCCCN)NC(=O)[C@@H](N)Cc1c[nH]c2ccccc12)C(=O)N[C@@H](C)C(=O)N[C@@H](CCCNC(=N)N)C(=O)N[C@H]1CCCCNC/C=C/CNCCCC[C@@H](C(=O)N[C@@H](CC(C)C)C(=O)NCC(=O)N[C@@H](CCCNC(=N)N)C(=O)N[C@@H](C)C(=O)N[C@@H](CCCCN)C(=O)N[C@@H](CC(C)C)C(=O)N[C@@H](Cc2ccccc2)C(=O)O)NC(=O)[C@H](CCCNC(=N)N)NC(=O)[C@H](CCCCN)NC(=O)[C@H](CC(C)C)NC1=O [VAE‐P3‐5‐St] (H-WKRIAR[X1]LKR[X1]LGRAKLF-OH; staple (E) 7-11) | 35
5 | CC[C@H](C)[C@H](NC(=O)[C@@H](N)CCCNC(=N)N)C(=O)N[C@@H](CC(C)C)C(=O)N[C@@H](CCCNC(=N)N)C(=O)N[C@@H](CCCCN)C(=O)N[C@@H](CC(C)C)C(=O)N[C@@H](CCCNC(=N)N)C(=O)N[C@H]1CCCCNC/C=C/CNCCCC[C@@H](C(=O)O)NC(=O)[C@H](CC(C)C)NC(=O)[C@H](Cc2ccccc2)NC(=O)[C@H](CCCNC(=N)N)NC1=O [GAN‐P2‐4‐St] (H-RILRKLR[X1]RFL[X1]-OH; staple (E) 8-12) | 34
6 | CC[C@H](C)[C@H](NC(=O)[C@@H](N)CCCNC(=N)N)C(=O)N[C@@H](CC(C)C)C(=O)N[C@@H](CCCNC(=N)N)C(=O)N[C@@H](CCCCN)C(=O)N[C@@H](CC(C)C)C(=O)N[C@@H](CCCCN)C(=O)N[C@H]1CCCCNC/C=C/CNCCCC[C@@H](C(=O)O)NC(=O)[C@H](CC(C)C)NC(=O)[C@H](Cc2ccccc2)NC(=O)[C@H](CCCNC(=N)N)NC1=O [GAN‐P2‐3‐St] (H-RILRKLK[X1]RFL[X1]-OH; staple (E) 8-12) | 75
7 | CC[C@H](C)[C@H](NC(=O)[C@@H](N)CCCNC(=N)N)C(=O)N[C@@H](CC(C)C)C(=O)N[C@@H](CCCNC(=N)N)C(=O)N[C@@H](CCCCN)C(=O)N[C@@H](CC(C)C)C(=O)N[C@@H](CCCNC(=N)N)C(=O)N[C@H]1CCCCNC/C=C/CNCCCC[C@@H](C(=O)O)NC(=O)[C@H](CC(C)C)NC(=O)[C@H](Cc2ccccc2)NC(=O)[C@H](CCCCN)NC1=O [GAN‐P2‐2‐St] (H-RILRKLR[X1]KFL[X1]-OH; staple (E) 8-12) | 75
8 | RILRKLRKKFLK [GAN‐P2‐2] | 58
9 | WKRIARKLKRKLGRAKLF [VAE‐P3‐5] | 76
10 | WKRIAKRLKKKLGRAKLF [VAE‐P3‐3] | 35
